System: wheat leaf rust, Puccinia recondita
Assay: Systemic activity by root-uptake, wheat leaf rust
Type: in vivo

**Q.** What does the source list for “3-(4-methoxybenzylmercapto)-4-n-butyl-1,2,4-triazole admixed with 4-n-butyl-2-(4-methoxybenzyl)-1,2,4-triazoline-3-thione”?
**A.** % Systemic Wheat Leaf Rust Control (2.5 ppm in soil): 64%; % Systemic Wheat Leaf Rust Control (5 ppm in soil): 71%; % Systemic Wheat Leaf Rust Control (10 ppm in soil): 72%

**Q.** Which results are given for CCCCn1cnnc1SC(O)C(Cl)(Cl)Cl (stereo not drawn)?
**A.** % Systemic Wheat Leaf Rust Control (2.5 ppm in soil): 98%; % Systemic Wheat Leaf Rust Control (5 ppm in soil): 100%; % Systemic Wheat Leaf Rust Control (10 ppm in soil): 100%

From patent US4120864A, “1,2,4-4H-triazole derivatives” (Rohm and Haas Company, priority 1972, dated 1978)
